Patent US10207993B2 (priority 2014, dated 2019)

Tested on: H37Rv
Assay: Inhibition of Mycobacterium colony growth in THP1 macrophages (CFU counts)
Assay type: cell-based, M. tuberculosis
Details: PMA-differentiated THP-1, MOI 10, CFU at 90 hr

SMILES: CC(O)(C(=O)OC1CN(Cc2ccccc2)C1)c1ccccc1 (stereo not shown)
- H37Rv % Inhibition at 500 nM: 78%
